From PubChem BioAssay AID1159558 (GlaxoSmithKline (GSK), 2015)

Amino acid sequences for entries named in this document (tags omitted).
UniProt Q7Z1V1, whole entry, looked up: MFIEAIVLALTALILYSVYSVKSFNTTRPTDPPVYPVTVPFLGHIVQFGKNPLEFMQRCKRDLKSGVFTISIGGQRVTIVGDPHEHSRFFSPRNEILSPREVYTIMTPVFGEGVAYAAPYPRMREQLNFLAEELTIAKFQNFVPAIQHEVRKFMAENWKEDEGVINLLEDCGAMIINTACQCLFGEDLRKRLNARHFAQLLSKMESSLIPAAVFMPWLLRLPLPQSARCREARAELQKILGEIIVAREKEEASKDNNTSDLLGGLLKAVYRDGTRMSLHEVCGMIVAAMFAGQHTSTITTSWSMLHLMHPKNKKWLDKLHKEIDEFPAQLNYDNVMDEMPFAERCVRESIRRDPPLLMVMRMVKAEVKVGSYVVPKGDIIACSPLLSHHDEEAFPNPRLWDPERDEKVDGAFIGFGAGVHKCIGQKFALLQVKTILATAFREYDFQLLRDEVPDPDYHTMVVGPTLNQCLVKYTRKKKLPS

Target: Sterol 14-alpha demethylase (Trypanosoma cruzi (strain CL Brener)) (UniProt Q7Z1V1)
Assay: TcCYP51 inhibitors, dose response, mechanism study for T. cruzi antiparasitic project, biochemical, recombinant enzyme (AID 1159558);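 also: enzyme in bacterial membranes with Anopheles gambiae CYP reductase and cytochrome b5 partners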
Settings: recombinant T. cruzi CYP51, BOMCC fluorescence

SMILES: CC(C)(C)c1ccc(NC2(C(N)=O)CCN(Cc3ccccc3)CC2)cc1
- IC50: 5 µM
